Measured values published in PubChem BioAssay AID1063 (University of Pittsburgh Molecular Library Screening Center, 2008).
The entries are a selection whose mix differs from that of the whole data set. The source made the active and inactive calls. Rule as the data show it: active = inhibition above about 50%; inactive = the rest.

Experiment: Leishmania major promastigote growth inhibition, primary screen (AID 1063);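 also: promastigotes grown with compound for 44 hours at 28 °C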
Details: Leishmania major promastigotes, resazurin fluorescence viability; at 10 µM; stronger effect = higher value
For `O=P1(Nc2ccccn2)COc2ccccc2OC1`, the inhibition was inactive: 1.07%. In the case of `Clc1n[nH]nc1-c1nn[nH][15n]1`, the inhibition is reported as inactive: -5.31%. With `CC(C)/C=N\N=C(\N)N[N+](=O)[O-]` the inhibition was inactive: -6.7%. For `CC1(CBr)Cn2c(nc3ccccc3c2=O)S1` (centres undefined), the inhibition was inactive: 17.1%. With `Cc1nn(-c2ccccc2)c2c1P(=O)(N1CCOCC1)N(C)C(c1ccccc1)=N2` (centres undefined) the inhibition was inactive: -5.4%. For `CC1CCC(C(C)C)C(OP(=O)(Nc2ccccn2)c2ccccc2)C1` (centres undefined), the inhibition was inactive: 26.7%. In the case of `CN(C)C1(CNC(=O)c2ccc(S(C)(=O)=O)cc2)CCCCC1`, the inhibition is reported as inactive: -4.28%. For `O=P1(Nc2ncccn2)COc2ccccc2OC1`, the inhibition was inactive: -2.84%. In the case of `O=P1(Nc2ccc(Br)cn2)COc2ccccc2OC1`, the inhibition is reported as inactive: -5.08%. In the case of `Cc1ccc(OCC(=O)OC2CN3CCC2CC3)cc1` (centres undefined), the inhibition is reported as inactive: -4.42%. For `CCOP1(=S)c2c(C)nn(CCC#N)c2N=C(c2ccccc2F)N1C` (centres undefined), the inhibition was inactive: -5.19%. With `O=P(Nc1nccs1)(c1ccccc1)c1nc2ccccc2s1` (centres undefined) the inhibition was inactive: -6.01%. In the case of `O=P(Nc1nccs1)(Oc1ccccc1)Oc1ccccc1`, the inhibition is reported as inactive: -0.81%. For `CCOP1(=S)c2c(C)nn(CCC#N)c2N=C(c2ccc(F)cc2)N1C` (centres undefined), the inhibition was inactive: -6.15%. In the case of `O=[N+]([O-])c1ccc2c(c1)nnn2O`, the inhibition is reported as inactive: -4.41%. For `COc1cc(C(=O)NCC2(N3CCOCC3)CCCCC2)cc(Cl)c1OC(C)C`, the inhibition was inactive: 26.6%. In the case of `Cc1cccc(OCC(=O)OC2CN3CCC2CC3)c1` (centres undefined), the inhibition is reported as inactive: -5.03%. For `Cc1ccc(NCCc2c([N+](=O)[O-])cc([N+](=O)[O-])cc2[N+](=O)[O-])cc1`, the inhibition was active: 64.8%. For `COc1cc(C2NCCC3(OCCO3)C2(C)C)cc(OC)c1OC` (centres undefined), the inhibition was inactive: 48.5%. For `CCOP(=O)(Nc1cccc2ccccc12)OCC`, the inhibition was inactive: -3.89%. With `Cc1c2c(nc3ccccc13)SC(C(Cl)Cl)C2` (centres undefined) the inhibition was inactive: -4.15%. With `O=C(OC1CN2CCC1CC2)C12CC3CC(CC(C3)C1)C2` (centres undefined) the inhibition was active: 86.5%. For `Cc1cc(=O)[nH]c(N[N+](=O)[O-])n1`, the inhibition was inactive: -6.44%. In the case of `COc1ccc2nc(NP(=O)(c3ccccc3)c3ccccc3)sc2c1`, the inhibition is reported as inactive: 4.85%. In the case of `COc1ccc(N/C(=N/P(=O)(N2CCOCC2)N2CCOCC2)N2CCOCC2)cc1`, the inhibition is reported as inactive: -8.13%. With `Cc1ccc2nc3c(c(C)c2c1)CC(C(Cl)Cl)S3` (centres undefined) the inhibition was inactive: 1.95%. For `ClCCSc1nnc(-c2cccnc2)o1`, the inhibition was inactive: -2.71%. In the case of `CCN(CC)C(=S)SC(NC=O)C(Cl)(Cl)Cl` (centres undefined), the inhibition is reported as active: 100%. With `CC(C)NC(=O)NP(=O)(Oc1ccccc1)Oc1ccccc1` the inhibition was inactive: -6.55%. In the case of `O=[N+]([O-])c1cc([N+](=O)[O-])c(-c2ccn[nH]2)s1`, the inhibition is reported as active: 100%. For `Cc1cc(SC(NC(=O)c2ccccc2)C(Cl)(Cl)Cl)nc(C(C)C)n1` (centres undefined), the inhibition was inactive: -1.35%. In the case of `O=P(Nc1ccccn1)(c1cccc2ccccc12)c1cccc2ccccc12`, the inhibition is reported as inactive: 4.71%. In the case of `Cc1cc(SC(NC=O)C(Cl)(Cl)Cl)ncn1` (centres undefined), the inhibition is reported as inactive: -5.25%. For `COP1(=S)c2c(C)nn(CCC#N)c2N=C(c2ccc(F)cc2)N1C` (centres undefined), the inhibition was inactive: 1.43%. In the case of `O=C(COc1ccccc1)OC1CN2CCC1CC2` (centres undefined), the inhibition is reported as inactive: -0.22%. For `CCC(C)N(CC(C)C)C(=S)SC(NC(C)=O)C(Cl)(Cl)Cl` (centres undefined), the inhibition was inactive: 30.9%. With `COc1ccc(C2=NCC(CBr)S2)cc1` (centres undefined) the inhibition was inactive: -7.26%. In the case of `Cc1ccc(NP(=O)(Oc2ccccc2)Oc2ccccc2)nc1`, the inhibition is reported as inactive: 17.5%. For `CCc1nc2c(n1)c1c(non1O)c1c2no[n+]1[O-]`, the inhibition was active: 55.3%. With `O=[N+]([O-])c1cc([N+](=O)[O-])c(CCNc2ccccc2)c([N+](=O)[O-])c1` the inhibition was active: 98.6%. For `O=[N+]([O-])c1cccc2n[nH]nc12`, the inhibition was inactive: -3.6%. In the case of `CC(=O)N1C2C3N(C(C)=O)C1C1N(C(C)=O)C(C(N1C(C)=O)N3C(C)=O)N2C(C)=O`, the inhibition is reported as inactive: -4.82%. For `CCN(/C(=N/P(=O)(N1CCOCC1)N1CCOCC1)N1CCOCC1)c1ccc(OC)cc1`, the inhibition was inactive: -6.79%. With `CC1CCN(C(=O)Oc2c(Cl)cc(Cl)c3cccnc23)CC1` the inhibition was inactive: 14.8%. For `CC(C)=N/N=C(\N)N[N+](=O)[O-]`, the inhibition was inactive: -3.38%. With `CN(C)C(=O)OCCc1n(C)cc[n+]1C` the inhibition was inactive: -5.28%. For `O=[N+]([O-])c1ncn(CCn2ncnc2[N+](=O)[O-])n1`, the inhibition was inactive: 7.1%. In the case of `CCOP(=O)(Nc1ccccc1)OCC`, the inhibition is reported as inactive: -1.24%. In the case of `Cc1cc(SC(NC(=O)c2ccc(F)cc2)C(Cl)(Cl)Cl)ncn1` (centres undefined), the inhibition is reported as inactive: -3.6%. In the case of `CCN(N=Nc1nonc1N)c1nonc1N`, the inhibition is reported as inactive: 37.5%. In the case of `Cc1ccc(N/C(=N/P(=O)(N2CCOCC2)N2CCOCC2)N2CCOCC2)cc1`, the inhibition is reported as inactive: 4.84%. In the case of `NC(=O)c1cc([N+](=O)[O-])cc([N+](=O)[O-])c1N`, the inhibition is reported as inactive: 18.2%. In the case of `Clc1ccc(Cl)c(NC2=NCC(CBr)S2)c1` (centres undefined), the inhibition is reported as inactive: 7.89%. With `CN1CCCC(OC(=O)C(c2ccccc2)c2ccccc2)C1` (centres undefined) the inhibition was inactive: 5.89%. With `COc1ccccc1OP(=O)(Nc1ccc(C)cn1)Oc1ccccc1OC` the inhibition was inactive: 4.5%. With `Oc1ccccc1CNc1ccccn1` the inhibition was inactive: -1.34%. With `Cc1c2non([O-])c-2c(C)[n+](=O)[n+]1[O-]` the inhibition was inactive: 17.3%. With `O=C(NC(Sc1ccncn1)C(Cl)(Cl)Cl)c1ccccc1` (centres undefined) the inhibition was inactive: -2.22%. For `CC(C)CC(=O)NC(Sc1ccc(Cl)cc1)C(Cl)(Cl)Cl` (centres undefined), the inhibition was inactive: 14.4%. With `O=P1(Nc2nc3ccc(Cl)cc3s2)COc2ccccc2O1` (centres undefined) the inhibition was inactive: 6.7%. With `CCOc1ccc(C2=NCC(CBr)S2)cc1` (centres undefined) the inhibition was inactive: -7.53%. With `CC(C)(C)C(=O)NC(Sc1ccccc1)C(Cl)(Cl)Cl` (centres undefined) the inhibition was inactive: 11.9%. With `CC(=O)Nc1ccc(Oc2c([N+](=O)[O-])cc([N+](=O)[O-])cc2[N+](=O)[O-])cc1` the inhibition was inactive: -6.47%. In the case of `c1ccc(-c2nn[nH]n2)c(-c2nn[nH]n2)c1`, the inhibition is reported as inactive: -4.61%. For `CCOC(=O)NC(Sc1ccccc1)C(Cl)(Cl)Cl` (centres undefined), the inhibition was inactive: 6.45%. For `CCNC(=S)/N=C(\N)N[N+](=O)[O-]`, the inhibition was inactive: -4.71%. For `O=C(NC1CCS(=O)(=O)C1)NP(=S)(Oc1ccccc1)Oc1ccccc1` (centres undefined), the inhibition was inactive: -7.65%. With `CCC(=O)N1C2C3N(C(=O)CC)C1C1N(C(=O)CC)C(C(N1C(=O)CC)N3C(=O)CC)N2C(=O)CC` the inhibition was inactive: -6.99%. In the case of `COC(=O)c1cc2c(s1)N=C(c1ccccc1)N(C)P2(=O)N1CCOCC1` (centres undefined), the inhibition is reported as inactive: 14.7%. For `Cc1ccc(OP(=O)(Nc2ccccn2)Oc2ccc(C)cc2)cc1`, the inhibition was active: 96.5%. With `CC(=O)NC(SC(=S)N(CC(C)C)CC(C)C)C(Cl)(Cl)Cl` (centres undefined) the inhibition was inactive: 32.5%. In the case of `O=c1c2cc([N+](=O)[O-])ccc2[nH]c2c([N+](=O)[O-])cc([N+](=O)[O-])cc12`, the inhibition is reported as active: 100%. For `O=P(Nc1ccccn1)(c1ccc(Br)cc1)c1ccc(Br)cc1`, the inhibition was active: 88%. In the case of `CC(=O)NC(SC(=S)N(C)C)C(Cl)(Cl)Cl` (centres undefined), the inhibition is reported as active: 100%. With `O=C(OC1CN2CCC1CC2)c1cccc(Cl)c1` (centres undefined) the inhibition was inactive: 18.2%. In the case of `C(Cc1nn[nH]n1)Cc1nn[nH]n1`, the inhibition is reported as inactive: -9.83%. For `CC(C)C(=O)NC(Sc1ccccc1)C(Cl)(Cl)Cl` (centres undefined), the inhibition was inactive: -0.64%. For `O=P(Nc1nccs1)(c1ccccc1)c1ccccc1`, the inhibition was inactive: -3.67%. For `c1nnnn1CCn1cnnn1`, the inhibition was inactive: -11.7%.
